Results of unrelated studies side by side (data: NIAID ChemDB).

All rows: target-level tests; species: HIV-1; protein: Reverse transcriptase; read by: nucleotide incorporation / radiometric; endpoint: IC50

Blank or dashed fields: not listed here. a–b is a range or a potency band. ICn is the concentration giving n% inhibition. Neighbouring rows are from separate reports.

compound | strain or isolate | mutations | value
CCc1ccc(-n2c(Br)nnc2SCC(=O)Nc2ccc(C(=O)O)cc2Br)c2ccccc12 |  | RT-Y188L | 0.05–0.1 µM
CCN1c2ncc(CCOc3ccc(-c4ccc(C(=O)O)nc4)cc3C)cc2C(=O)N(C)c2cccnc21 | IIIB | RT-K103N Y181C | <0.05 µM
CCc1ccc(-n2c(SCC(=O)Nc3ccc(C(=O)O)cc3C)nnc2C(F)F)c2ccccc12 |  | RT-Y181C | >0.1 µM
CCN1c2ncccc2NC(=O)c2cc(CCOc3ccc(-c4cc(OC)c(O)c(C(=O)O)c4)cc3C)cnc21 | IIIB |  | <0.05 µM
CCN1c2ncc(CCc3cccc(I)c3)cc2C(=O)N(C)c2ccc(Cl)nc21 | WT |  | <1 µM
CCOC(=O)CCNC(=O)c1ccc(NC(=O)CSc2nnc(Br)n2-c2ccc(C3CC3)c3ccccc23)c(Cl)c1 |  |  | <0.05 µM
CCN1c2ncc(CCOc3cccc4c3ccc[n+]4[O-])cc2C(=O)Nc2c(C)cc(Cl)nc21 |  | RT-Y188L | 3.938 µM
CCN1c2ncc(CCc3ccc4cc[nH]c4c3)cc2C(=O)N(C)c2cccnc21 | WT |  | <1 µM
CCN1c2ncc(CCOc3ccc(-c4ccnc(C)c4)cc3C)cc2C(=O)N(C)c2cccnc21 | IIIB |  | <0.05 µM
CCN1c2ncc(CCOc3ccc4cc(C(=O)NN)ccc4c3)cc2C(=O)N(C)c2cccnc21 | WT |  | <0.1 µM
CCOC(=O)CNC(=O)c1ccc(NC(=O)CSc2nnc(Br)n2-c2ccc(C3CC3)c3ccccc23)c(Cl)c1 |  | RT-Y181C | 0.05–0.1 µM
CCN1c2ncc(CCOc3ccc(C(=O)Nc4ccc(C(=O)O)cc4)cc3C)cc2C(=O)Nc2c(C)ccnc21 | IIIB |  | <0.05 µM
CCN1c2ncc(CCOc3ccc(C(=O)O)c4c3CCC4)cc2C(=O)N(C)c2cccnc21 | WT |  | <0.1 µM
Cc1cc(C(=O)O)ccc1NC(=O)CSc1nnc(C(F)F)n1-c1ccc(C)c2c1CCCC2 |  | RT-Y188L | >0.1 µM
CCN1c2ncc(CCOc3ccc(C(=O)Nc4ccc(CC(=O)O)cc4)cc3C)cc2C(=O)Nc2c(C)ccnc21 | IIIB | RT-K103N Y181C | <0.05 µM
O=C(CSc1nnc(Br)n1-c1ccc(C2CC2)c2ccccc12)Nc1ccc(C(=O)O)cc1Cl |  | RT-Y188L | 0.05–0.1 µM
CCN1c2ncc(CCOc3ccc(-c4ccc(CC(=O)O)cc4)cc3)cc2C(=O)N(C)c2cccnc21 | IIIB |  | <0.05 µM
CCN1c2ncc(CCc3ccccc3N)cc2C(=O)N(C)c2ccc(Cl)nc21 |  | RT-Y181C | <1 µM
CCN1c2ncc(CCOc3ccc(-c4ccc(C(=O)O)cc4)cc3)cc2C(=O)N(C)c2cccnc21 | IIIB | RT-K103N Y181C | 0.05–0.1 µM
CCN1c2ncc(CCOc3ccc4cc(CC(=O)O)ccc4c3C)cc2C(=O)N(C)c2cccnc21 | WT |  | <0.1 µM
CCN1c2ncc(CCc3ccncc3)cc2C(=O)N(C)c2ccc(F)nc21 |  | RT-Y181C | <1 µM
CCN1c2ncc(CCOc3ccc(-c4ccc(C)[n+]([O-])c4C)cc3C)cc2C(=O)N(C)c2cccnc21 | IIIB |  | <0.05 µM
CCN1c2ncc(CCc3ccnc(C)c3)cc2C(=O)N(C)c2ccc(Cl)nc21 |  | RT-Y181C | <1 µM
O=C(CSc1nnc(Br)n1-c1ccc(C2CC2)c2ccccc12)Nc1ccc(C(=O)N[C@@H](Cc2ccc(O)cc2)C(=O)O)cc1Cl |  | RT-Y188L | 0.05–0.1 µM
CCN1c2ncc(CCc3cc[n+]([O-])cc3)cc2C(=O)N(C)c2ccc(Cl)nc21 | WT |  | <1 µM
CCN1c2ncc(CCOc3ccc(C(=O)O)c4c3CCC4)cc2C(=O)N(C)c2ccc(Cl)nc21 |  | RT-V106A | 0.1–1 µM
CCc1cc(C2CC2)ccc1-n1c(Br)nnc1SCC(=O)Nc1ccc(C(=O)O)cc1Cl |  |  | <0.05 µM

A second listing of 4 rows from above:

{"compound": "CCN1c2ncc(CCOc3ccc(-c4ccnc(C)c4)cc3C)cc2C(=O)N(C)c2cccnc21", "strain or isolate": "IIIB", "value": "<0.05 µM"}
{"compound": "CCOC(=O)CCNC(=O)c1ccc(NC(=O)CSc2nnc(Br)n2-c2ccc(C3CC3)c3ccccc23)c(Cl)c1", "value": "<0.05 µM"}
{"compound": "CCN1c2ncc(CCOc3ccc(-c4ccc(C(=O)O)nc4)cc3C)cc2C(=O)N(C)c2cccnc21", "strain or isolate": "IIIB", "mutations": "RT-K103N Y181C", "value": "<0.05 µM"}
{"compound": "CCN1c2ncc(CCOc3ccc(C(=O)Nc4ccc(C(=O)O)cc4)cc3C)cc2C(=O)Nc2c(C)ccnc21", "strain or isolate": "IIIB", "value": "<0.05 µM"}